A mixed list of measured activities; the numbers were collected in NIAID ChemDB.

All rows: tests in culture; species: Hepatitis C virus

ECn is the concentration giving n% inhibition of infection, replication or growth.

SMILES,method,read-out,mutations,setting,strain or isolate,cell line,result
COc1ccc(-c2cnc3nc(N)nc(N4CCN(C(=O)Nc5ccc(F)cc5)CC4)c3n2)cc1OC,replicon,EC50,-,-,HCV replicon,Huh7,<0.3 µM
COc1c(C(C)(C)C)cc(-n2ccc(=O)[nH]c2=O)c2ncc(-c3ccc(NS(C)(=O)=O)cc3)cc12,replicon,EC50,-,40% human serum,GT-1b Con1,Huh7,0.011 µM
CCOc1nc(NCc2ccc(S(N)(=O)=O)cc2)nc2ncc(-c3ccc(F)cc3)nc12,replicon,EC50,-,-,HCV replicon,Huh7,<0.3 µM
Nc1ncnc2c1ncn2C1C[C@H]2C[C@@H]1c1cscc12,replicon,EC50,-,-,1b,Huh,9 µM
Cc1cc(OCc2ccccc2)ccc1NC(N)=S,replicon,EC50,-,-,-,Huh7,<1 µM
CCCCCOc1ccc(N(C)c2nc(-c3ccc(CN4CCN(C)CC4)nc3)cs2)cc1C(F)(F)F,-,EC50,-,-,-,-,<1 µM
CCOCCN1CCN(c2nc(N)nc3ncc(-c4ccc(OC)c(OC)c4)nc23)CC1,replicon,EC50,-,-,HCV replicon,Huh7,<0.3 µM
COC(=O)/C=C/c1cn([C@@H]2O[C@H](CO)[C@@H](O)[C@@]2(C)F)c2ncnc(N)c12,replicon,EC90,-,-,-,CEM,>10 µM
OC[C@@H]1C[C@@H](O)[C@H](n2cnc3c(-c4ccsc4)ncnc32)O1,replicon,EC50,-,-,-,-,>10 µM
CC(C)C(NC(=O)N[C@H](C(=O)N1C[C@H]2C([C@H]1C(=O)NC(CC1CC1)C(=O)C(=O)NCCc1ccccc1)C2(C)C)C(C)(C)C)C(=O)O,replicon,EC90,-,-,-,-,20 µM
NC(=S)NCc1ccc(OCc2ccccc2)cc1,replicon,EC50,-,-,-,Huh7,<1 µM
CC(C)CC[C@@]1(C)C(=O)C(C2=NS(=O)(=O)c3cc(NS(C)(=O)=O)ccc3N2)=C(O)c2ccccc21,luciferase,EC50,-,-,1a,Huh7,0.0068 µM
COc1ccc(N(Cc2c(Cl)cccc2Cl)S(=O)(=O)c2cccc(C#N)c2)cc1C(=O)O,PCR,EC50,-,-,1b,Huh 5-2,1.3 µM
CN(C)C(=O)COC(=O)N1c2cccc(O)c2NC2=C(C(=O)CC(C)(C)C2)C1c1ccc(OCc2ccccc2)cc1Cl,luciferase / reporter gene / replicon,EC50,-,-,1b,-,3.73 µM
O=C(N[C@@H](C(=O)N1CCC[C@H]1c1ncc(-c2ccc(-c3ccc(-c4cnc([C@@H]5CCCN5C(=O)[C@H](NC(=O)C5CC5)c5ccccc5)s4)cc3)cc2)s1)c1ccccc1)C1CC1,luciferase / reporter gene,EC50,M202L,-,genotype 1b,Huh7.5,0.0000021 µM
Nc1ncnc2c1c(C#Cc1cccc(-c3ccccn3)n1)cn2[C@H]1C[C@H](O)[C@@H](CO)O1,replicon,EC50,-,genotype 1b,1b,Huh7,13 µM
C=CC1CC1(NC(=O)[C@@H]1C[C@@H](Oc2cc(-c3ccccc3)nc3cc(OC)ccc23)CN1C(=O)[C@@H](CC(=O)N1CCCCC1C(N)=O)C(C)(C)C)C(=O)O,replicon,EC50,-,-,-,-,1–10 µM
COc1ncc(OC)c(N2CCN(S(=O)(=O)c3ccc(OC(F)(F)F)cc3)C(C(=O)NCc3ccc(OC(F)(F)F)cc3)C2)n1,replicon,EC50,-,-,1a,-,2 µM
CC(C)OC(=O)N[C@H](C(=O)N1C[C@H](OC(C)(C)C)CC1C(=O)NC(CC1CC1)C(=O)C(=O)NCC(=O)N[C@H](C(=O)N(C)C)c1ccccc1)C(C)(C)C,replicon,EC90,-,-,-,-,2 µM
CC1CCC(C(=O)N(c2cc(-c3ccc(NC(=O)c4cscn4)cc3)sc2C(=O)[O-])C(C)C)CC1.C[NH2+]C[C@H](O)[C@@H](O)[C@H](O)[C@H](O)CO,replicon,EC50,-,-,1b,-,<0.5 µM
Clc1ncnc2c1ncn2C1C[C@H]2C[C@@H]1c1ccsc12,replicon,EC50,-,-,1b,Huh,21 µM
COc1ccc2c(O[C@@H]3C[C@H]4C(=O)N[C@@]5(C(=O)NS(=O)(=O)C6CC6)C[C@@H]5/C=C\CCCCC[C@H](CC(=O)N5CCCCC5)C(=O)N4C3)cc(-c3ccccc3)nc2c1,replicon,EC50,-,-,-,-,<100 µM
CC(C)(C)OC(=O)N1CCN([C@@H](c2ccccc2)C(N)c2ccccc2)CC1,absorbance,EC90,-,-,-,-,8.15 µM
CC(C)[C@@](C)(NC(=O)NC(C(=O)N1C[C@H]2C([C@H]1C(=O)NC(CC1CC1)C(=O)C(N)=O)C2(C)C)C(C)(C)C)C(=O)O,replicon,EC90,-,-,-,-,18 µM
CC1(C)CC(=O)C2=C(C1)Nc1c(O)cccc1N(C(=O)CC(=O)O)[C@H]2c1ccc(Oc2ccccc2Br)cc1Cl,luciferase / reporter gene / replicon,EC50,-,-,1b,-,95.19 µM
Nc1ncnc2c1ncn2C1C[C@H]2C[C@@H]1[C@H]1CSC[C@@H]21,replicon,EC50,-,-,1b,Huh,27 µM
COC(=O)c1ccc(N2CCN(S(=O)(=O)c3ccc(OC(F)(F)F)cc3)C(C(=O)NCc3ccc(OC(F)(F)F)cc3)C2)nn1,replicon,EC50,-,-,1b,-,0.14 µM
NC(=S)Nc1cccc(OCCc2ccccc2)c1,replicon,EC50,-,-,-,Huh7,<1 µM
COC(=O)N[C@H](C(=O)N1CCC[C@H]1c1ncc(-c2ccc(-c3ccc(-c4cnc([C@@H]5CCCN5C(=O)[C@@H](NC(=O)OC)C(C)C)[nH]4)cc3)cc2)[nH]1)C(C)C,luciferase,EC50,L31W,-,1b,ET,0.0003 µM
CC1(C)CC(=O)C2=C(C1)Nc1c(O)cccc1N(C(=O)CCC(=O)N1Cc3ccccc3C1)C2c1ccc(OCc2ccccc2)cc1Cl,luciferase / reporter gene / replicon,EC50,-,-,1b,-,5.56 µM
CC1CCC(C(=O)N(c2cc(-c3ccc(NC(=O)c4cscn4)c(C(F)(F)F)c3)sc2C(=O)O)C(C)C)CC1,replicon,EC50,-,-,1a,-,<0.5 µM
CCCCCCCCCCCCCCOC(=O)NC(CCC(=O)O)(CCC(=O)O)CCC(=O)O,replicon / PCR,EC50,-,-,1a,Huh7-SG1a H77,0.0284 µM
CC(C)(C)C(NC(=O)N[C@H](C(=O)N1C[C@H]2C([C@H]1C(=O)NC(CC1CC1)C(=O)C(N)=O)C2(C)C)C1Cc2ccccc2C1)C(=O)O,replicon,EC90,-,-,-,-,4.1 µM
OC[C@@H]1C[C@@H](O)[C@H](n2cnc3c(COCc4ccccc4)ncnc32)O1,replicon,EC50,-,-,-,-,>10 µM
CC(C)C(=O)N1c2cccc(O)c2NC2=C(C(=O)CC(C)(C)C2)[C@H]1c1ccc(OCc2ccccc2)cc1Cl,luciferase / reporter gene / replicon,EC50,-,-,1b,-,2.48 µM
Nc1nc(Cl)nc2c1ncn2[C@@H]1O[C@H](CO)[C@@H](F)[C@@H]1F,replicon,EC90,-,-,-,Huh7,>10 µM
C=CCNC(=O)C(=O)C(CCCC)NC(=O)[C@@H]1C2[C@H](CN1C(=O)[C@@H](NC(=O)N[C@H](C(=O)OC(C)C)C(C)(C)C)C(C)(C)C)C2(C)C,replicon,EC90,-,-,-,-,0.8 µM
Nc1ncnc2c1c(-c1ccc(-c3cccc(-c4ccccn4)n3)cc1)cn2[C@H]1C[C@H](O)[C@@H](CO)O1,replicon,EC50,-,genotype 1b,1b,Huh7,16 µM
CCCC(NC(=O)[C@@H]1[C@@H]2[C@H](CN1C(=O)[C@@H](NC(=O)OC(C)(C)C)C(C)(C)C)C2(C)C)C(=O)C(=O)NCC(=O)N[C@H](C(=O)N(C)C)c1ccccc1,replicon,EC90,-,-,-,-,0.25 µM
Nc1ncnc2c1ncn2[C@@H]1O[C@H](CO)[C@@H](F)[C@@H]1F,replicon,EC50,-,-,-,Huh7 cells,>10 µM
CC1(C)CC(=O)C2=C(C1)Nc1c(O)cccc1N(C(=O)c1ccco1)C2c1ccc(Cl)cc1Cl,luciferase / reporter gene / replicon,EC50,-,-,1b,-,10.07 µM
NC(=S)Nc1cccc(Cc2ccccc2)c1,replicon,EC50,-,-,-,Huh7,<1 µM
CCCCCCCCOc1ccc(N(C(=O)CN(C)C)c2nc(-c3cccnc3)c(F)s2)cc1C(F)(F)F,-,EC50,-,-,-,-,<1 µM
COc1ccc(-c2cnc3nc(N)nc(N4CCN(Cc5ccc(C)cc5)CC4)c3n2)cc1OC,replicon,EC50,-,-,HCV replicon,Huh7,0.3–1 µM
CCCC1CCC(c2ccc(NC(N)=S)cc2)CC1,replicon,EC50,-,-,-,Huh7,<1 µM
CC1CCC(C(=O)N(c2cc(-c3ccc(NC(=O)c4ccco4)nc3)sc2C(=O)O)C(C)C)CC1,replicon,EC50,-,-,1b,-,<0.5 µM
C=CC1CC1(NC(=O)[C@@H]1C[C@@H](Oc2cc(-c3ccccc3)nc3cc(OC)ccc23)CN1C(=O)[C@@H](CC(=O)N1CCCCC1)C(C)(C)C)C(=O)O,replicon,EC50,-,-,-,-,>10 µM
CCC[C@H](NC(=O)[C@@H]1[C@H]2CCC[C@H]2CN1C(=O)[C@@H](NC(=O)[C@@H](NC(=O)c1cnccn1)C1CCCCC1)C(C)(C)C)C(=O)C(=O)NC1CC1,replicon,EC50,-,-,-,Huh7,0.33 µM
CC(C)CC(NC(=O)NC(C(=O)N1C[C@H]2C([C@H]1C(=O)NC(CC1CC1)C(=O)C(N)=O)C2(C)C)C(C)(C)C)C(=O)O,replicon,EC90,-,-,-,-,20 µM
C[C@@]1(F)[C@H](O)[C@@H](CO)O[C@H]1n1cc(Br)c2c(N)ncnc21,replicon,EC90,-,-,-,CEM,>10 µM
NC(=S)NC1Cc2ccccc2C1,replicon,EC50,-,-,-,Huh7,<1 µM
CNc1ncnc2c1c(F)cn2[C@@H]1O[C@H](CO)[C@@H](O)[C@@]1(C)F,replicon,EC90,-,-,-,CEM,>10 µM
Clc1ncnc2c1ncn2C1C[C@H]2C[C@@H]1[C@@H]1CSC[C@H]21,replicon,EC90,-,-,1b,Huh,>20 µM
CC1(C)CCCCc2cccc3c2CN(C3)C(=O)O[C@@H]2C[C@@H](C(=O)NC3CCOB3O)N(C2)C(=O)[C@H](C(C)(C)C)NC(=O)OC1,replicon,EC50,-,genotype 1a,-,-,0.78 µM
C=CC1CC1(NC(=O)[C@@H]1C[C@@H](Oc2cc(-c3ccccc3)nc3cc(OC)ccc23)CN1C(=O)[C@@H](CC(=O)N1CCCCC1)C(C)(C)C)C(=O)OCC,replicon,EC50,-,-,-,-,1–10 µM
CCCCCCCOc1ccc(NC(N)=S)cc1C(F)(F)F,replicon,EC50,-,-,-,Huh7,<1 µM
CCOC(=O)[C@H](C)NP(=O)(OC[C@H]1O[C@@H](n2ccc3c(N)nc(N)nc32)[C@](C)(F)[C@@H]1O)Oc1ccccc1,replicon,EC90,-,-,-,CEM,>10 µM
COc1ccc(-c2cnc3nc(N)nc(N4CCN(CCOc5ccccc5)CC4)c3n2)cc1OC,replicon,EC50,-,-,HCV replicon,Huh7,<0.3 µM
CB1OC[C@@H](C)C1NC(=O)[C@@H]1C[C@@H]2CN1C(=O)[C@H](C(C)(C)C)NC(=O)OCC(C)(C)CCCCc1cccc3c1CN(C3)C(=O)O2,replicon,EC50,-,genotype 1a,-,-,33 µM
CCc1ncnc2c1ncn2[C@@H]1O[C@H](CO)C[C@H]1O,replicon,EC50,-,-,-,-,>10 µM
CCCCn1c(=O)c2cc(OC)ccc2c2cc(C(O)(C(F)(F)F)C(F)(F)F)c3c(c21)OCO3,PCR,EC50,-,-,1b,#50-1,0.25 µM
CCCCCCCCOc1ccc(N(CC(N)=O)c2nc(-c3ccc(OCC(N)=O)cc3)cs2)cc1,-,EC50,-,-,-,-,>10 µM
Cc1cc(C(=O)Nc2ccc(-c3cc(N(C(=O)C4CCC(C)CC4)C(C)C)c(C(=O)O)s3)cc2)n[nH]1,replicon,EC50,-,-,1b,-,<0.5 µM
CCCCOC(=O)C1CCN(c2ccc(NC(N)=S)cc2F)CC1,replicon,EC50,-,-,-,Huh7,<1 µM
COc1ccc(-c2cnc3nc(N)nc(N4CCN(C(=O)Nc5cccs5)CC4)c3n2)cc1OC,replicon,EC50,-,-,HCV replicon,Huh7,<0.3 µM
CC(C)N(C(=O)C1CCC(C)(F)CC1)c1cc(-c2ccc(NC(=O)c3cscn3)cc2)sc1C(=O)O,replicon,EC50,-,-,1a,-,<0.5 µM
NS(=O)(=O)c1ccc(CNc2nc(NCC(F)(F)F)c3nc(-c4ccc(F)c(Cl)c4)cnc3n2)cc1,replicon,EC50,-,-,HCV replicon,Huh7,0.3–1 µM
NC(=S)Nc1ccc(OCc2ccccc2)cc1,replicon,EC50,-,-,-,Huh7,<1 µM
CCCCCOc1ccc(N(C(=O)C(=O)OC)c2nc(-c3ccc(F)cc3F)cs2)cc1C(F)(F)F,-,EC50,-,-,-,-,<1 µM
CC[C@H](C)Nc1nc(N)nc2ncc(-c3ccc(OC)c(OC)c3)nc12,replicon,EC50,-,-,HCV replicon,Huh7,0.3–1 µM
COc1nc(N)nc2c1ncn2[C@@H]1O[C@H](COP(=O)(N[C@@H](C)C(=O)OCC(C)(C)C)Oc2cccc3ccccc23)[C@@H](O)[C@@]1(C)O,luciferase,EC50,-,24 h,1b,Huh7,0.01 µM

6 of the rows above, restated:

SMILES | method | read-out | mutations | setting | strain or isolate | cell line | result
CC1(C)CCCCc2cccc3c2CN(C3)C(=O)O[C@@H]2C[C@@H](C(=O)NC3CCOB3O)N(C2)C(=O)[C@H](C(C)(C)C)NC(=O)OC1 | replicon | EC50 | - | genotype 1a | - | - | 0.78 µM
NC(=S)Nc1ccc(OCc2ccccc2)cc1 | replicon | EC50 | - | - | - | Huh7 | <1 µM
CC(C)(C)C(NC(=O)N[C@H](C(=O)N1C[C@H]2C([C@H]1C(=O)NC(CC1CC1)C(=O)C(N)=O)C2(C)C)C1Cc2ccccc2C1)C(=O)O | replicon | EC90 | - | - | - | - | 4.1 µM
NC(=S)NCc1ccc(OCc2ccccc2)cc1 | replicon | EC50 | - | - | - | Huh7 | <1 µM
Nc1ncnc2c1ncn2C1C[C@H]2C[C@@H]1[C@H]1CSC[C@@H]21 | replicon | EC50 | - | - | 1b | Huh | 27 µM
CCOc1nc(NCc2ccc(S(N)(=O)=O)cc2)nc2ncc(-c3ccc(F)cc3)nc12 | replicon | EC50 | - | - | HCV replicon | Huh7 | <0.3 µM

a–b is a range or a potency band. Lines come from different laboratories, so protocols vary. An empty or dashed field is not shown.